Pooled drug test results. Numbers come from NIAID ChemDB, via PubChem.

Shared fields: tests on isolated targets; species: Hepatitis C virus; protein: Nonstructural protein 5B; endpoint: IC50

Conditions beyond the fields shown may differ between rows. ICn is the concentration giving n% inhibition. Two numbers with a dash give a range or band. Blank or dashed fields: not listed here.

SMILES	strain	read by	value
COc1c(-c2ccc3cc(NS(C)(=O)=O)ccc3c2)cc(-n2ccc(=O)[nH]c2=O)cc1C(C)(C)C	GT 1b-BK	nucleotide incorporation	0.0031 µM
COc1ccc(CCC2(C3CCCC3)CC(=O)C(Oc3ccccc3)C(=O)O2)cc1OC	-	-	10–50 µM
O=C(O)c1ccc(N2C(=O)C(=Cc3ccc(-c4ccco4)o3)SC2=S)cc1	-	-	≤1 µM
CNC(=O)c1c(-c2ccc(C)cc2)oc2ccc(Cl)cc12	-	-	≤0.5 µM
CCCN(C1=C(O)C[C@@](CCc2cccc(O)c2)(C2CCCC2)OC1=O)c1ccccc1	-	-	1–10 µM
CNC(=O)c1c(-c2ccc(F)cc2)oc2cc(N(CS(C)(=O)=O)C(=O)NC)c(OC)cc12	-	-	≤0.5 µM
O=C1C=C(O)CC(CC2CCc3ccccc32)(C2CCCC2)O1	-	-	>50 µM
O=C(O)CN1C(=O)C(=Cc2ccc(-c3cc(Cl)cc(Cl)c3)o2)SC1=S	-	-	≤1 µM
CNC(=O)c1c(-c2ccc(F)cc2)oc2cc(N(CCO)S(C)(=O)=O)c(C3CC3)cc12	-	-	≤0.5 µM
CC(C(=O)O)N1C(=O)C(=Cc2ccc(-c3cc(C(F)(F)F)ccc3Cl)o2)SC1=S	-	-	≤1 µM
CNC(=O)c1c(N(C)S(C)(=O)=O)cc2oc(-c3ccc(F)cc3)c(C(=O)NC)c2c1OC	-	-	≤0.5 µM
COc1cc(OC)c(CCC2(C3CCCC3)CC(O)=C(Sc3nc4ccc(C(=O)O)cc4[nH]3)C(=O)O2)cc1Cl	-	-	<1 µM
O=C(O)CCN1C(=O)C(=Cc2ccc(-c3ccc(Cl)c(Cl)c3)o2)SC1=S	-	-	≤1 µM
CNC(=O)c1c(-c2ccc(F)cc2)oc2cc(N(CS(C)(=O)=O)c3cscn3)c(OC(C)C)cc12	-	-	≤0.5 µM
O=C1OC(CCc2ccc(OCc3ccccc3)cc2)(C2CCCC2)CC(O)=C1Sc1nc2[nH]ccc2c(=O)[nH]1	-	-	<1 µM
COc1ccc(Br)cc1-c1ccc(C=C2SC(=S)N(c3ccc(C(=O)O)cc3)C2=O)o1	-	-	≤1 µM

The last 2 rows once more:

SMILES | strain | read by | value
O=C1OC(CCc2ccc(OCc3ccccc3)cc2)(C2CCCC2)CC(O)=C1Sc1nc2[nH]ccc2c(=O)[nH]1 | - | - | <1 µM
COc1ccc(Br)cc1-c1ccc(C=C2SC(=S)N(c3ccc(C(=O)O)cc3)C2=O)o1 | - | - | ≤1 µM